Patent publication US10414808B2 (priority 2012, dated 2019)
Like-named read-outs stand apart in the source and are kept apart here.

The chains behind the UniProt entries cited, without tags or fusion partners.
UniProt Q15858, whole entry W1161R, looked up: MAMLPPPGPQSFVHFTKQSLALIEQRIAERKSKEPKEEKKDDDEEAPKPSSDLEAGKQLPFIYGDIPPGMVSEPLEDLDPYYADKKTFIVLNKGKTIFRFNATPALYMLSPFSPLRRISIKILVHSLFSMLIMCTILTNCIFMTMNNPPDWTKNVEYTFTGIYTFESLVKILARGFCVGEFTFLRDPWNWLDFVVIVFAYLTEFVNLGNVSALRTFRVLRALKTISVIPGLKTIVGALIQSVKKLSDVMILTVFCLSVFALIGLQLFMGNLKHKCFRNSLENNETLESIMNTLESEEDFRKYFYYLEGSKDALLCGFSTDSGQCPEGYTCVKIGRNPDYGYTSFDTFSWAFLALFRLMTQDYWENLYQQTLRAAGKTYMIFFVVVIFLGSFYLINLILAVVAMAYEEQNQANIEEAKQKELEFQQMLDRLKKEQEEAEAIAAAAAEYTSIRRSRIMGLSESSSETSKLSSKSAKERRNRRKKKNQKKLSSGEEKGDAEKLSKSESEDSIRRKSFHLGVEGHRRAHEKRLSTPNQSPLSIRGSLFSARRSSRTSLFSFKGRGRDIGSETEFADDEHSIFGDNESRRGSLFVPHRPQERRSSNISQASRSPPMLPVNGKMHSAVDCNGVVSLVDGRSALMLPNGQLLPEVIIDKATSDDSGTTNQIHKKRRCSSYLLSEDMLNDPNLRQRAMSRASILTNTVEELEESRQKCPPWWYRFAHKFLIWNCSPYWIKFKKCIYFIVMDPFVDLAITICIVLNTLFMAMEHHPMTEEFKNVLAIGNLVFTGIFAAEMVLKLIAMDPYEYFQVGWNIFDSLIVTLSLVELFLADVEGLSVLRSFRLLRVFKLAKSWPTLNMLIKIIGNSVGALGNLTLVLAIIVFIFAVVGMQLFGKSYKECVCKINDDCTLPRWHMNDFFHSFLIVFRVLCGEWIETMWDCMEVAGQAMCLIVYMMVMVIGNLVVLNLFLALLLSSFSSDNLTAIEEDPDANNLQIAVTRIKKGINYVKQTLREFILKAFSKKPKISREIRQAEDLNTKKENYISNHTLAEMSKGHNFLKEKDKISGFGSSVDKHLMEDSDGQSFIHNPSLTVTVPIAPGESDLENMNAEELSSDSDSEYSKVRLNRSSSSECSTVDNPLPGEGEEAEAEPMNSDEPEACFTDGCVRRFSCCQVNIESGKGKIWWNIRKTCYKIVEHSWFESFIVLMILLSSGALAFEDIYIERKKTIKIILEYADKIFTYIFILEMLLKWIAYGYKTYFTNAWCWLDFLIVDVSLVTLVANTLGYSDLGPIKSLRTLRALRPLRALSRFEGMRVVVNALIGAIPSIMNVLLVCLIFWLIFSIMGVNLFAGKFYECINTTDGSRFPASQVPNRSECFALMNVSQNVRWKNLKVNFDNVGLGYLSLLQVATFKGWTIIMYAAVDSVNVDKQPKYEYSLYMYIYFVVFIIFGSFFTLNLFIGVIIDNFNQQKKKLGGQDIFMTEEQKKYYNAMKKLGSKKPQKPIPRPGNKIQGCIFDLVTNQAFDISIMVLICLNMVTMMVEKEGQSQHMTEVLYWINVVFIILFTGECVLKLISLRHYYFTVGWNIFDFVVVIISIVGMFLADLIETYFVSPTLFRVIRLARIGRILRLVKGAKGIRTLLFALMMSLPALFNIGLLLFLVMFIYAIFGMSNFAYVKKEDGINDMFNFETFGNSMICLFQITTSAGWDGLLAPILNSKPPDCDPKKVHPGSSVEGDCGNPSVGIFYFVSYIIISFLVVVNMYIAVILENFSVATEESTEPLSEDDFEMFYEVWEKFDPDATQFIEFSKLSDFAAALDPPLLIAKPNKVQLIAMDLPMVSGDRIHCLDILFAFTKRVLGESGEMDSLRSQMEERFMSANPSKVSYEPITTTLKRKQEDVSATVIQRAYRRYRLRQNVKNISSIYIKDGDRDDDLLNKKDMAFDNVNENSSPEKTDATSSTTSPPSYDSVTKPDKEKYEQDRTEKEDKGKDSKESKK
UniProt Q99250, whole entry, looked up: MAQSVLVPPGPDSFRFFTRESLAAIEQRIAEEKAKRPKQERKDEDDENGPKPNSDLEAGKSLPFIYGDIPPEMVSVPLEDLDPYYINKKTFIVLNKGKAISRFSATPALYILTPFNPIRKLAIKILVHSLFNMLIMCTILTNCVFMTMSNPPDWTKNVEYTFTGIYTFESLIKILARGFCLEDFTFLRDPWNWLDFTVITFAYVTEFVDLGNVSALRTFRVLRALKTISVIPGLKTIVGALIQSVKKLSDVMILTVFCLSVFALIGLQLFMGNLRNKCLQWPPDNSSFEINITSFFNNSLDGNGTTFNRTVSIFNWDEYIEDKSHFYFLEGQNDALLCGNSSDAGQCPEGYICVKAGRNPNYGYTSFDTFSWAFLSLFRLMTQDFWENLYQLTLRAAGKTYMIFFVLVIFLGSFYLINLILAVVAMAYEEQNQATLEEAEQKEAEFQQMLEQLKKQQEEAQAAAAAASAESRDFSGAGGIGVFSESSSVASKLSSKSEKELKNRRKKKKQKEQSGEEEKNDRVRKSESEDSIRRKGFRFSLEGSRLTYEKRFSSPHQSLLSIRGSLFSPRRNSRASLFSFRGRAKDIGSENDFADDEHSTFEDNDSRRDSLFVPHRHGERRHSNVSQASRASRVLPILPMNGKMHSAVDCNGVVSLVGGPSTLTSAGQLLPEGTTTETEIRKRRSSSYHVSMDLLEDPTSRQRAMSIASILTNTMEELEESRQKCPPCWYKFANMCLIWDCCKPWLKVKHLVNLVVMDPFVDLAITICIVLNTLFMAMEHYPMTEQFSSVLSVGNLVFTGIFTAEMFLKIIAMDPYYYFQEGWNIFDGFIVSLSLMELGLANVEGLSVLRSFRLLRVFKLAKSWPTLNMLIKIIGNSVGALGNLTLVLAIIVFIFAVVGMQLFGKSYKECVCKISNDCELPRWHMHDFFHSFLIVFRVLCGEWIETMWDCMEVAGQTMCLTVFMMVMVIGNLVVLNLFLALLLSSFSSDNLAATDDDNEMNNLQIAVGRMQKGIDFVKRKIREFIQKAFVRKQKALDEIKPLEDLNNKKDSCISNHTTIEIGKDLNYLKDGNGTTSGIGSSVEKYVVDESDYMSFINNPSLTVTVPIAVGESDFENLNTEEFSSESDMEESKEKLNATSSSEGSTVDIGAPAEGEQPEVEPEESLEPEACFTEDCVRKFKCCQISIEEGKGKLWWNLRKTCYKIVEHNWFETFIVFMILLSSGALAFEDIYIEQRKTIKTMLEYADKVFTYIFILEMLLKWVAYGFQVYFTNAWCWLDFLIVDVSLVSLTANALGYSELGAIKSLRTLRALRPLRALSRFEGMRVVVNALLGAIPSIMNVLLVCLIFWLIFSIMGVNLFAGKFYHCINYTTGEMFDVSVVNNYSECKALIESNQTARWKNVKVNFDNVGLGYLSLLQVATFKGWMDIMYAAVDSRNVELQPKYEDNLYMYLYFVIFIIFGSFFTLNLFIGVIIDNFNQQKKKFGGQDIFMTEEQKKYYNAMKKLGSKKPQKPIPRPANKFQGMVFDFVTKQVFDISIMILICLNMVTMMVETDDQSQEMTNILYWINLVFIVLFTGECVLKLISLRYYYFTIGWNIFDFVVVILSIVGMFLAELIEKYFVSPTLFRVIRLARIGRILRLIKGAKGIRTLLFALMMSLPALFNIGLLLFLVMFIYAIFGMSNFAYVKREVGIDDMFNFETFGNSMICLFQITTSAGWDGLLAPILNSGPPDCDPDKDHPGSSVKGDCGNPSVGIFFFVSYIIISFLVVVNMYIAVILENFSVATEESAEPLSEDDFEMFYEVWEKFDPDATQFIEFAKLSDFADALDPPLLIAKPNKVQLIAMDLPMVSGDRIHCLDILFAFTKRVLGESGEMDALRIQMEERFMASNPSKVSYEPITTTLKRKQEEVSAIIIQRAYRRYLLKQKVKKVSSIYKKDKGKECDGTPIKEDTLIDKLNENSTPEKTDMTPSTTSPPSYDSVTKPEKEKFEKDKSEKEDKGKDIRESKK

Experiments:
[1] = biological target: T1, Nav1.7 (Homo sapiens, UniProt Q15858, W1161R); test: IC50 (Nav1.7) µM; details: read-out: IC50 (Nav1.7) µM
[2] = biological target: T1, Nav1.7; test: IC50 (Nav1.7) µM; details: read-out: IC50 (Nav1.7) µM; remark: listed apart in the source
[3] = biological target: Nav1.2 (Homo sapiens, UniProt Q99250); test: IC50 (Nav1.2) µM; details: read-out: IC50 (Nav1.2) µM

SMILES	IC50 [1] [µM]	IC50 [2] [µM]	IC50 [3] [µM]
CC[C@H](C)[C@@H]1NC(=O)[C@H](CCCNC(=N)N)NC(=O)[C@H](CC(C)C)NC(=O)[C@@H](NC(=O)[C@H](CC(N)=O)NC(=O)[C@@H]2CCCN2C(=O)CN)CSSC[C@@H]2NC(=O)[C@@H]3CSSC[C@@H](C(=O)N[C@@H](CCCCN)C(=O)N[C@@H](Cc4ccc(O)cc4)C(=O)N[C@@H](CO)C(=O)N[C@H](C(=O)N[C@H](C(=O)N[C@@H](CCCCN)C(=O)O)[C@@H](C)CC)[C@@H](C)CC)NC(=O)[C@H](Cc4c[nH]c5ccccc45)NC(=O)[C@H](CCCNC(=N)N)NC(=O)[C@H]([C@@H](C)O)NC(=O)[C@H](CCCCN)NC(=O)[C@H](CCCNC(=N)N)NC(=O)[C@H](CO)NC(=O)[C@H](CSSC[C@H](NC(=O)[C@H](C)NC(=O)[C@H](CCCCN)NC(=O)[C@H](Cc4ccccc4)NC1=O)C(=O)N[C@@H](CC(N)=O)C(=O)N1CCC[C@H]1C(=O)N[C@@H](CO)C(=O)N[C@@H](CC(N)=O)C(=O)N[C@@H](CC(=O)O)C(=O)N[C@@H](CCC(N)=O)C(=O)N3)NC(=O)[C@H](C(C)C)NC(=O)[C@H](CC(C)C)NC(=O)[C@H](CCCCN)NC(=O)[C@H](CO)NC(=O)[C@H](CO)NC(=O)[C@H](CCCCN)NC2=O	0.01		
CC[C@H](C)[C@H](NC(=O)[C@H](CCC(N)=O)NC(=O)[C@H](Cc1ccc(O)cc1)NC(=O)[C@H](CCCCN)NC(=O)[C@@H]1CSSC[C@@H]2NC(=O)[C@H](CCC(N)=O)NC(=O)[C@H](CC(=O)O)NC(=O)[C@H](CC(N)=O)NC(=O)[C@H](CO)NC(=O)[C@@H]3CCCN3C(=O)[C@H](CC(N)=O)NC(=O)[C@@H]3CSSC[C@H](NC(=O)[C@H](C)NC(=O)[C@H](CC(C)C)NC(=O)[C@H](CCCCN)NC(=O)[C@H](CO)NC(=O)[C@H](CO)NC(=O)[C@H](CCCCN)NC(=O)[C@H](CSSC[C@H](NC(=O)[C@H](CCC(=O)O)NC(=O)[C@@H]4CCCN4C(=O)CN)C(=O)N[C@@H](CC(C)C)C(=O)N[C@@H](CCC(=O)O)C(=O)N[C@@H]([C@@H](C)CC)C(=O)N[C@@H](Cc4ccccc4)C(=O)N[C@@H](CCCCN)C(=O)N[C@@H](C)C(=O)N3)NC2=O)C(=O)N[C@@H](CO)C(=O)N[C@@H](CCCNC(=N)N)C(=O)N[C@@H](CCCCN)C(=O)N[C@@H]([C@@H](C)O)C(=O)N[C@@H](CCCNC(=N)N)C(=O)N[C@@H](Cc2c[nH]c3ccccc23)C(=O)N1)C(=O)NCC(=O)N[C@@H](CCCCN)C(=O)O		0.11	> 1.51
CC[C@H](C)[C@H](NC(=O)[C@H](CCC(N)=O)NC(=O)[C@H](Cc1ccc(O)cc1)NC(=O)[C@H](CCCCN)NC(=O)[C@@H]1CSSC[C@@H]2NC(=O)[C@H](CCC(N)=O)NC(=O)[C@H](CC(=O)O)NC(=O)[C@H](CC(N)=O)NC(=O)[C@H](CO)NC(=O)[C@@H]3CCCN3C(=O)[C@H](CC(N)=O)NC(=O)[C@@H]3CSSC[C@H](NC(=O)[C@H](C(C)C)NC(=O)[C@H](CC(C)C)NC(=O)[C@H](CCCCN)NC(=O)[C@H](CO)NC(=O)[C@H](CO)NC(=O)[C@H](CCCCN)NC(=O)[C@H](CSSC[C@H](NC(=O)[C@H](CCC(=O)O)NC(=O)[C@@H]4CCCN4C(=O)CN)C(=O)N[C@@H](CC(C)C)C(=O)N[C@@H](CCC(=O)O)C(=O)N[C@@H]([C@@H](C)CC)C(=O)N[C@@H](Cc4ccccc4)C(=O)N[C@@H](CCCCN)C(=O)N[C@@H](C)C(=O)N3)NC2=O)C(=O)N[C@@H](CO)C(=O)N[C@@H](CCCNC(=N)N)C(=O)N[C@@H](C)C(=O)N[C@@H]([C@@H](C)O)C(=O)N[C@@H](CCCNC(=N)N)C(=O)N[C@@H](Cc2c[nH]c3ccccc23)C(=O)N1)C(=O)NCC(=O)N[C@@H](CCCCN)C(=O)O		0.26	> 2.95
CC[C@H](C)[C@H](NC(=O)[C@H](CCC(N)=O)NC(=O)[C@H](Cc1ccc(O)cc1)NC(=O)[C@H](CCCCN)NC(=O)[C@@H]1CSSC[C@@H]2NC(=O)[C@H](CCC(N)=O)NC(=O)[C@H](CC(=O)O)NC(=O)CNC(=O)[C@H](CO)NC(=O)[C@@H]3CCCN3C(=O)[C@H](CC(N)=O)NC(=O)[C@@H]3CSSC[C@H](NC(=O)[C@H](C(C)C)NC(=O)[C@H](CC(C)C)NC(=O)[C@H](CCCCN)NC(=O)[C@H](CO)NC(=O)[C@H](CO)NC(=O)[C@H](CCCCN)NC(=O)[C@H](CSSC[C@H](NC(=O)[C@H](CCC(=O)O)NC(=O)[C@@H]4CCCN4C(=O)CN)C(=O)N[C@@H](CC(C)C)C(=O)N[C@@H](CCC(=O)O)C(=O)N[C@@H]([C@@H](C)CC)C(=O)N[C@@H](Cc4ccccc4)C(=O)N[C@@H](CCCCN)C(=O)N[C@@H](C)C(=O)N3)NC2=O)C(=O)N[C@@H](CO)C(=O)N[C@@H](CCCNC(=N)N)C(=O)N[C@@H](CCCCN)C(=O)N[C@@H]([C@@H](C)O)C(=O)N[C@@H](CCCNC(=N)N)C(=O)N[C@@H](Cc2c[nH]c3ccccc23)C(=O)N1)C(=O)NCC(=O)N[C@@H](CCCCN)C(=O)O		0.19	3.74
CC[C@H](C)[C@H](NC(=O)[C@H](CO)NC(=O)[C@H](Cc1c[nH]c2ccccc12)NC(=O)[C@H](CCCCN)NC(=O)[C@@H]1CSSC[C@@H]2NC(=O)[C@H](CCC(N)=O)NC(=O)[C@H](CC(=O)O)NC(=O)[C@H](CC(N)=O)NC(=O)[C@H](CO)NC(=O)[C@@H]3CCCN3C(=O)[C@H](CC(N)=O)NC(=O)[C@@H]3CSSC[C@H](NC(=O)[C@H](C(C)C)NC(=O)[C@H](CC(C)C)NC(=O)[C@H](CCCCN)NC(=O)[C@H](CO)NC(=O)[C@H](CO)NC(=O)[C@H](CCCCN)NC(=O)[C@H](CSSC[C@H](NC(=O)[C@H](CCC(=O)O)NC(=O)[C@@H]4CCCN4C(=O)CN)C(=O)N[C@@H](CC(C)C)C(=O)N[C@@H](CCCNC(=N)N)C(=O)N[C@@H]([C@@H](C)CC)C(=O)N[C@@H](Cc4ccccc4)C(=O)N[C@@H](CCCCN)C(=O)N[C@@H](C)C(=O)N3)NC2=O)C(=O)N[C@@H](CO)C(=O)N[C@@H](CCCNC(=N)N)C(=O)N[C@@H](CCCCN)C(=O)N[C@@H]([C@@H](C)O)C(=O)N[C@@H](CCCNC(=N)N)C(=O)N[C@@H](Cc2c[nH]c3ccccc23)C(=O)N1)C(=O)NCC(=O)N[C@@H](CCCCN)C(=O)O		0.02	0.02
CC[C@H](C)[C@@H]1NC(=O)[C@H](CCCNC(=N)N)NC(=O)[C@H](CC(C)C)NC(=O)[C@@H](NC(=O)[C@H](CC(N)=O)NC(=O)[C@@H]2CCCN2C(=O)CN)CSSC[C@@H]2NC(=O)[C@@H]3CSSC[C@@H](C(=O)N[C@@H](CCCCN)C(=O)N[C@@H](Cc4c[nH]c5ccccc45)C(=O)N[C@@H](CCC(N)=O)C(=O)N[C@H](C(=O)N[C@H](C(=O)N[C@@H](CCCCN)C(=O)O)[C@@H](C)CC)[C@@H](C)CC)NC(=O)[C@H](Cc4c[nH]c5ccccc45)NC(=O)[C@H](CCCNC(=N)N)NC(=O)[C@H]([C@@H](C)O)NC(=O)[C@H](CCCCN)NC(=O)[C@H](CCCNC(=N)N)NC(=O)[C@H](CO)NC(=O)[C@H](CSSC[C@H](NC(=O)[C@H](C)NC(=O)[C@H](CCCCN)NC(=O)[C@H](Cc4ccccc4)NC1=O)C(=O)N[C@@H](CC(N)=O)C(=O)N1CCC[C@H]1C(=O)N[C@@H](CO)C(=O)N[C@@H](CC(N)=O)C(=O)N[C@@H](CC(=O)O)C(=O)N[C@@H](CCC(N)=O)C(=O)N3)NC(=O)[C@H](C(C)C)NC(=O)[C@H](CC(C)C)NC(=O)[C@H](CCCCN)NC(=O)[C@H](CO)NC(=O)[C@H](CO)NC(=O)[C@H](CCCCN)NC2=O		0.02	0.05
CC[C@H](C)[C@H](NC(=O)[C@H](CCC(N)=O)NC(=O)[C@H](Cc1ccc(O)cc1)NC(=O)[C@H](CCCCN)NC(=O)[C@@H]1CSSC[C@@H]2NC(=O)[C@H](CCC(N)=O)NC(=O)[C@H](CC(=O)O)NC(=O)[C@H](CC(N)=O)NC(=O)[C@H](CO)NC(=O)[C@@H]3CCCN3C(=O)[C@H](CC(N)=O)NC(=O)[C@@H]3CSSC[C@H](NC(=O)[C@H](C(C)C)NC(=O)[C@H](CC(C)C)NC(=O)[C@H](CCCCN)NC(=O)[C@H](CO)NC(=O)[C@H](CO)NC(=O)[C@H](CCCCN)NC(=O)[C@H](CSSC[C@H](NC(=O)[C@H](CCC(=O)O)NC(=O)[C@@H]4CCCN4C(=O)CN)C(=O)N[C@@H](CC(C)C)C(=O)N[C@@H](CCC(=O)O)C(=O)N[C@@H]([C@@H](C)CC)C(=O)N[C@@H](Cc4ccccc4)C(=O)N[C@@H](CCCCN)C(=O)N[C@@H](C)C(=O)N3)NC2=O)C(=O)N[C@@H](CO)C(=O)NCC(=O)N[C@@H](CCCCN)C(=O)N[C@@H]([C@@H](C)O)C(=O)N[C@@H](CCCNC(=N)N)C(=O)N[C@@H](Cc2c[nH]c3ccccc23)C(=O)N1)C(=O)NCC(=O)N[C@@H](CCCCN)C(=O)O		0.29	3.62
CC[C@H](C)[C@@H]1NC(=O)[C@H](CCC(=O)O)NC(=O)[C@H](CC(C)C)NC(=O)[C@@H](NC(=O)[C@H](CCC(=O)O)NC(=O)[C@@H]2CCCN2C(=O)CN)CSSC[C@@H]2NC(=O)[C@@H]3CSSC[C@@H](C(=O)N[C@@H](CCCCN)C(=O)N[C@@H](Cc4ccc(O)cc4)C(=O)N[C@@H](CCC(N)=O)C(=O)N[C@H](C(=O)N[C@H](C(=O)N[C@@H](CCCCN)C(=O)O)[C@@H](C)CC)[C@@H](C)CC)NC(=O)[C@H](Cc4c[nH]c5ccccc45)NC(=O)[C@H](CCCNC(=N)N)NC(=O)[C@H]([C@@H](C)O)NC(=O)[C@H](CCCCN)NC(=O)[C@H](CCCNC(=N)N)NC(=O)[C@H](CO)NC(=O)[C@H](CSSC[C@H](NC(=O)[C@H](C)NC(=O)[C@H](CCCCN)NC(=O)[C@H](Cc4ccccc4)NC1=O)C(=O)N[C@@H](CC(N)=O)C(=O)N1CCC[C@H]1C(=O)N[C@@H](CO)C(=O)N[C@@H](CC(N)=O)C(=O)N[C@@H](CC(=O)O)C(=O)N[C@@H](CCC(N)=O)C(=O)N3)NC(=O)[C@H](C(C)C)NC(=O)[C@H](CC(C)C)NC(=O)[C@H](CCCCN)NC(=O)[C@H](CO)NC(=O)[C@H](CO)NC(=O)[C@H](CCCCN)NC2=O		0.06	1.42
